Source: US20040166565A1

Target: KDR/flk-1 receptor (UniProt P35968)
Experiment: cell-based or functional assay

Substance | IC50 of growth inhibition of PAE/KDR cells (72 hours, cell count) [nM]
SLT-VEGF/S fusion protein (from UniProt P10149 84-286; P15692 27-147) | 0.15
SLT-VEGF/L fusion protein (from UniProt P10149 23-315; P15692 27-147) | 0.15
